These results are taken from article PMC3441419, “The Redox-Sensing Regulator Rex Modulates Central Carbon Metabolism, Stress Tolerance Response and Biofilm Formation by Streptococcus mutans”.

The exact form of at least one protein or probe is not confirmed. Weaker means in comparison with the reference protein, sequence or condition of that experiment. Tags and fusion partners may be left off the protein sequences shown.

For the series, the target named is T1, rRex (UniProt Q8DU91).
T1 sequence (looked up, limits assumed): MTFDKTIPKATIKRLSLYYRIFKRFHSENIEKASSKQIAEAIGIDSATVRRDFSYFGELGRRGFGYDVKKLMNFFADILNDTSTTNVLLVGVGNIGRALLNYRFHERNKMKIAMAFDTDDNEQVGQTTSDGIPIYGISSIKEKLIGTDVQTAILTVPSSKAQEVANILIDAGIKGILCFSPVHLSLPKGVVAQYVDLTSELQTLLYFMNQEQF
The experiment in a line: EMSA. The following applies: 20 mM Tris pH 8.0, 1 mM EDTA, 75 mM KCl, 2 mM DTT, 10% glycerol, 10 min at room temperature (+15 min after NAD+/NADH), 5% native PAGE, recombinant protein, protein details: N-terminal His (pQE30), probe letters rebuilt from the primers and the genome.

On to “ACAAGCCCATACTGAGTTTGGACATTAAAGCTCAGCAGGGCTATGATTATGATGTCATTATCATCGGCGGCGGTGTTTCAGGTGTGACTCTAGCC (double strand) [gshR promoter]”, for which the binding result (10 mM NADH (complex formation inhibited)) is “binds more weakly”.

Regarding “AGTCCTTAAGTAAAACCACATCTGTTTTGACGGCTCTCACCAAAAAGAGTCTGAGACAAAAAGATTTCTCAAACTCTTTGATTAGTGACTTTAGTCTGTCTCGCTCCGTAGGTGCGAGACAAATAAACCACCCGCTATGCGGGTGCGCATTGAATGTTATACAAAAAATCTCCAAACGCGATACAATAAAGGTGTTCAAGCCTATTGTAAAGCGAAAGGAGCAAAAAATGGCACAAAAGGCACATAGTTTATCACATACAAAGTGGATATGTTCTATCACCTTGTGTTCACCCCTAAGTATAGACGAAAAATCATCTATAATCAATATCGAAGTAGTTTAGGCGAGATATTCCAACGATTATGCAGTTACAAAGATGTTGAAATTATCGAAGGCCATCTGATGCCAGACC (double strand) [tpn promoter]”, the binding result is “binds”.

Take “ATGACAGTTCCTCGCATTTTTAATTTATGTTATAATTATAAGTGAAAAACATCACATTTGAAAAGCCTTACAAATATCTTAAAAAATGACTTTTTATGACTTTTAGATGGGAGGTTTGCTTAGT (double strand) [frdC promoter]”: the binding result (10 mM NADH (binding almost abolished)) is recorded as “binds more weakly”.

“CAGCATCCGCACAGTCTTCATATTTAGCTGCATAGATTTTTTTTGGTGAAGTAAAAGCAAGTGCATGACTAAGATCAAGAGCGTCGCCAACGGCTTTTTCAAATAATTGAGGAATTTCAATAATACCAAGTTCTTGAGCAATTCCTTGGTTAACGAGAGCGAAAGCGTAAGATGAACCTACAGCACCATCACCAACAAGGATGACTTTTTTATGTTGTTTAGTTGCAGTCATGTTCTAAACATCTCCTTATAATTTATTAAGTATATATTCTATACATTTTCATTCTAACACTTTTTGTTAAGAAAGTCACTAATATTTACCTTTCTCAGCGGAAAACTATAGTAGAATAGCTGAAAAAGAGCCTTATTTGTGATATAATATAAAAGAGTTTTAGACTAGAAATGAGGCATTTTTTAATGCAAGATAGAAATTTAGTAGATGTCAATTTAACAAGTGAAATGAAGACGAGTTTTATTGACTATGCTATGAGTGTTATTGTTGCTCGGGCTCTTCCAGA (double strand) [ldh promoter]”: the binding result is recorded as “binds”.

With “CCTTGGTACTTTATTGCTGATAAGAGTGCTTAAAACAAATAGAAATCTCAGAAAATAATCTGAGGTTTTTTAATTTTCAATAATTTATTAGCCCTCACACGATCAAGATTTTCAAGGGGATAAAAATTTGGGAAAAAATTCACAAAAAGACTTGCATTTTTTTGTGAAAAGGGTTACAATGACAAGTGAAGAAAATCACAAGAGTATCTTTCTTCTTAAACTATTTACCAACTATTATTTTTAGGAGGAATTGTTGAATGGCAAAAGAAACAAAAACAGAAGCACTCACTGCTGAAGAAGCAGCTA (double strand) [adhE promoter]”, the binding result is listed as “binds”. Besides, the binding result (rRex preloaded with NAD+, desalted) is “binds”. Also, under “rRex preloaded with NADH, desalted (binding inhibited)”, the binding result is “binds more weakly”.

Turning to “TTATCGAAAGTCACTGTACTTCCTCCTTTTTCTATATACTATTGTAAAAAAAGTTTGTGAAAAATGCAACATCTTTTGAAGGGTCTTGTGATAGACATTTCTTATATAGTCTTTAGTTTTTTTTATAACAAATTTGACCACCCGTTAGACGGGTGGTCATAATTATAAGGGGTACTGTTAATTTTGATGGAGTAAAAGTTTTCTTTTGTTTCAAACCATTGATATAAGATTGTTAAAAATTTCTCTCCAATCTCTGTATTAAACTAACGGCTCCAGTATATTAAACACTGTTAGACTTTACTTTGCC (double strand) [rex promoter]”, the binding result is “binds”.
